Our source for the SI values is PMC7144106, “The Evolution of Pleconaril: Modified O-Alkyl Linker Analogs Have Biological Activity towards Coxsackievirus B3 Nancy” (Molecules, 2020).

The data set has as its system coxsackievirus B3 strain Nancy. Briefly: Viral yield reduction assay against CVB3 in Vero cells. The format is cell-based. As to conditions: ratio of CC50 to IC50, CVB3 Nancy.
`Cc1cc(CN2CCN(c3ccc(-c4noc(C(F)(F)F)n4)cc3C)CC2)on1` [Compound 28b, 3-(3-Methyl-4-(4-((3-methylisoxazol-5-yl)methyl)piperazin-1-yl)phenyl)-5-(trifluoromethyl)-1,2,4-oxadiazole]: the SI was 59. The result for `CCOC(=O)c1cc(CCC(=O)Nc2ccc(-c3noc(C(F)(F)F)n3)cc2C)on1` [Compound 20a, Ethyl 5-(3-((2-methyl-4-(5-(trifluoromethyl)-1,2,4-oxadiazol-3-yl)phenyl)amino)-3-oxopropyl)isoxa-zole-3-carboxylate] reads 95; that for `CCOC(=O)c1cc(CCC(=O)Oc2ccc(-c3noc(C(F)(F)F)n3)cc2C)on1` [Compound 12a, Ethyl 5-(3-(2-methyl-4-(5-(trifluoromethyl)-1,2,4-oxadiazol-3-yl)phenoxy)-3-oxopropyl)-isoxazole-3-carboxylate], 75. For `Cc1cc(CCC(=O)Nc2ccc(-c3noc(C(F)(F)F)n3)cc2C)on1` [Compound 20b, N-(2-Methyl-4-(5-(trifluoromethyl)-1,2,4-oxadiazol-3-yl)phenyl)-3-(3-methylisoxazol-5-yl)propan-amide], the SI was found to be 23. On to `Cc1cc(-c2noc(C(F)(F)F)n2)ccc1N1CCN(C(=O)c2c(-c3ccccc3)noc2C)CC1` [Compound 35b, (5-Methyl-3-phenylisoxazol-4-yl)(4-(2-methyl-4-(5-(trifluoromethyl)-1,2,4-oxadiazol-3-yl)phenyl)pi-perazin-1-yl)methanone], for which the SI was found to be 125. The same measure for `CCOC(=O)c1cc(CCCSc2ccc(-c3noc(C(F)(F)F)n3)cc2C)on1` [Compound 6a, 3-(3-Methyl-4-((3-(3-carbethoxy-isoxazol-5-yl)propyl)thio)phenyl)-5-(trifluoromethyl)-1,2,4-oxadia-zole]: 23; for `CCOC(=O)c1cc(N2CCN(c3ccc(-c4noc(C(F)(F)F)n4)cc3C)CC2)on1` [Compound 28c, Ethyl 5-(4-(2-methyl-4-(5-(trifluoromethyl)-1,2,4-oxadiazol-3-yl)phenyl)piperazin-1-yl)isoxazole-3-carboxylate]: 1; for `Cc1cc(-c2noc(C(F)(F)F)n2)ccc1N1CCN(C(=O)c2cc(-c3ccccc3)no2)CC1` [Compound 35a, (4-(2-Methyl-4-(5-(trifluoromethyl)-1,2,4-oxadiazol-3-yl)phenyl)piperazin-1-yl)(3-phenylisoxazol--5-yl)methanone]: <2. The result for `Cc1cc(-c2noc(C(F)(F)F)n2)ccc1NC(=O)CCc1cc(C(=O)N(C)C)no1` [Compound 21, N,N-dimethyl-5-(3-((2-methyl-4-(5-(trifluoromethyl)-1,2,4-oxadiazol-3-yl)phenyl)amino)-3-oxopro-pyl)isoxazole-3-carboxamide] reads 248. Regarding `Cc1cc(-c2noc(C(F)(F)F)n2)ccc1N1CCN(c2cc(C(=O)N(C)C)no2)CC1` [Compound 28a, N,N-Dimethyl-5-(4-(2-methyl-4-(5-(trifluoromethyl)-1,2,4-oxadiazol-3-yl)phenyl)piperazin-1-yl)iso-xazole-3-carboxamide], the SI turned out to be 205. The result for `Cc1cc(-c2noc(C(F)(F)F)n2)ccc1SCCCc1cc(C(=O)N(C)C)no1` [Compound 7, N,N-dimethyl-5-(3-((2-methyl-4-(5-(trifluoromethyl)-1,2,4-oxadiazol-3-yl)phenyl)thio)propyl)isoxa-zole-3-carboxamide] reads >122; that for `Cc1cc(CCC(=O)Oc2ccc(-c3noc(C(F)(F)F)n3)cc2C)on1` [Compound 12b, 2-Methyl-4-(5-(trifluoromethyl)-1,2,4-oxadiazol-3-yl)phenyl 3-(3-methylisoxazol-5-yl)propanoate], 35. The same measure for `Cc1cc(CCCSc2ccc(-c3noc(C(F)(F)F)n3)cc2C)on1` [Compound 6b, 3-(3-Methyl-4-((3-(3-methylisoxazol-5-yl)propyl)thio)phenyl)-5-(trifluoromethyl)-1,2,4-oxadiazole]: > 167; for `Cc1cc(CCCOc2c(C)cc(-c3noc(C(F)(F)F)n3)cc2C)on1` [Pleconaril]: 130.
